Pooled drug test results. Numbers come from NIAID ChemDB, via PubChem.

Shared fields: growth or infection tests; organism: HIV-1; cells: MT-2; read-out: EC90

a–b is a range or a potency band.

CCCc1c([Se]c2ccccc2)n(COCCO)c(=O)[nH]c1=O ; strain: Cat #3 strain ; method: p24 ; value: 8.8 µM
N#CN=C1N(Cc2ccc3ccccc3c2)[C@H](Cc2ccccc2)[C@H](O)[C@@H](O)[C@@H](Cc2ccccc2)N1Cc1ccc2ccccc2c1 ; strain: RF ; method: hybridisation ; value: >79 µM
CC(C)(C)NC(=O)[C@@H]1C[C@@H]2CCCC[C@@H]2N1C(=O)[C@@H](O)[C@H](Cc1ccccc1)NC(=O)[C@H](CC(N)=O)NC(=O)c1ccc2ccccc2n1 ; strain: RF ; method: p24 ; value: 0.023–0.11 µM
CC[C@H](C)[C@H](NC(=O)Cc1ccccn1)C(=O)N[C@@H](Cc1ccccc1)[C@@H](O)[C@H](O)[C@H](Cc1ccccc1)NC(=O)[C@@H](NC(=O)Cc1ccccn1)[C@@H](C)CC ; strain: Clinical isolate E ; method: plaque count / virus yield ; value: 0.95 µg/mL
O=C1N(Cc2ccccc2)[C@H](Cc2c[nH]c3ccccc23)[C@H](O)[C@@H](O)[C@@H](Cc2c[nH]c3ccccc23)N1Cc1ccccc1 ; strain: RF ; method: hybridisation ; value: >10 µM
CC(C)CN(C[C@@H](O)[C@H](Cc1ccccc1)NC(=O)[C@@H](NC(=O)CNCc1cccc(F)c1)C(C)(C)C)S(=O)(=O)c1ccc(N)cc1 ; strain: RF ; method: virus yield ; value: 0.0078 µM
CSCC[C@@H]1[C@H](O)[C@@H](O)[C@@H](CCSC)N(Cc2ccc(CO)cc2)C(=O)N1Cc1ccc(CO)cc1 ; strain: RF ; method: hybridisation ; value: >10 µM
NC(=O)c1cccc(CN2C(=O)N(Cc3cccc(C(N)=O)c3)[C@@H](Cc3ccccc3)[C@@H](O)[C@@H]2CCc2ccccc2)c1 ; strain: RF ; value: >5 µM
CC(C)c1nc(CN(C)C(=O)N[C@H](C(=O)N[C@@H](Cc2ccccc2)C[C@H](O)[C@H](Cc2ccccc2)NC(=O)OCc2cncs2)C(C)C)cs1 ; strain: MN ; method: RT activity ; value: 0.083 µM
O=C1N(Cc2ccc(CO)cc2)[C@H](Cc2ccncc2)[C@H](O)[C@@H](O)[C@@H](Cc2ccncc2)N1Cc1ccc(CO)cc1 ; strain: RF ; method: hybridisation ; value: 10 µM
CC(C)(C)NC(=O)[C@@H]1CCCN1C(=O)[C@@H](O)[C@H](Cc1ccccc1)NC(=O)[C@H](CC(N)=O)NC(=O)COc1cccc2ccccc12 ; strain: RF ; method: p24 ; value: 0.14–0.15 µM
O=C1N(Cc2ccc(CO)cc2)[C@H](Cc2ccccc2)[C@H](O)[C@@H](O)[C@@H](Cc2ccccc2)N1Cc1ccc(CO)cc1 ; strain: RF ; method: hybridisation ; value: 0.057 µM
Nc1ccn([C@H]2CC[C@@H](CO)O2)c(=O)n1 ; strain: RF ; value: 0.16 µg/mL
CC(C)[C@H](NC(=O)c1ccc2ccccc2n1)C(=O)N[C@@H](Cc1ccccc1)[C@H](O)C(=O)N1CCC[C@H]1C(=O)NC(C)(C)C ; strain: RF ; method: p24 ; value: 0.62 µM
N#CN=C1N(Cc2cccc(OCc3ccccc3)c2)[C@H](Cc2ccccc2)[C@H](O)[C@@H](O)[C@@H](Cc2ccccc2)N1Cc1cccc(OCc2ccccc2)c1 ; strain: RF ; method: hybridisation ; value: >67.3 µM
Nc1cccc(CN2C(=O)N(Cc3ccc4[nH]nc(-c5ccc(F)cc5)c4c3)[C@H](Cc3ccccc3)[C@H](O)[C@@H](O)[C@H]2Cc2ccccc2)c1 ; strain: Ritonavir-resistant (PR M46I L63P A71V V82F I84V) ; mutations: PR-M46I L63P A71V V82F I84V ; value: >5 µM
CC(C)(C)NC(=O)[C@@H]1C[C@@H]2CCCC[C@@H]2N1C(=O)[C@@H](O)[C@H](Cc1ccc(O)cc1)NC(=O)[C@H](CC(N)=O)NC(=O)COc1cccc2ccccc12 ; strain: RF ; method: p24 ; value: 1.42 µM
C[C@@H]1[C@H](O)[C@@H](O)[C@@H](C)N(Cc2ccccc2)C(=O)N1Cc1ccccc1 ; strain: RF ; method: hybridisation ; value: >10 µM
CC[C@H](C)[C@H](NC(=O)Cc1ccccn1)C(=O)N[C@@H](Cc1ccccc1)[C@@H](O)[C@H](O)[C@H](Cc1ccccc1)NC(=O)[C@@H](NC(=O)Cc1ccccn1)[C@@H](C)CC ; strain: RF ; value: 1.5 µg/mL
N#Cc1cccc(CN2C(=O)N(Cc3cccc(C#N)c3)[C@@H](Cc3ccccc3)[C@@H](O)[C@@H]2CCc2ccccc2)c1 ; strain: RF ; value: >5 µM
O=C(Nc1cc(S(=O)(=O)O)cc2cc(S(=O)(=O)O)c(N=Nc3ccc(N=Nc4c(S(=O)(=O)O)cc5cc(S(=O)(=O)O)cc(NC(=O)c6cccc(Cl)c6Cl)c5c4O)cc3)c(O)c12)c1ccc(Cl)cc1Cl ; strain: A018A ; value: 3.16–5.53 µg/mL
CC(C)[C@H](NC(=O)COc1cccc2ccccc12)C(=O)N[C@@H](Cc1ccccc1)[C@H](O)C(=O)N1[C@H](C(=O)NC(C)(C)C)C[C@@H]2CCCC[C@@H]21 ; strain: RF ; method: p24 ; value: 0.033–0.12 µM
CC(C)CN(C[C@@H](O)[C@H](Cc1ccccc1)NC(=O)[C@@H](NC(=O)CNCc1cccc(F)c1)C(C)(C)C)S(=O)(=O)c1cccc(N)c1 ; strain: IIIB ; method: virus yield ; value: 0.0046 µM
CC(C)C[C@@H]1[C@H](O)[C@@H](O)[C@@H](CC(C)C)N(Cc2ccccc2)C(=O)N1Cc1ccccc1 ; strain: RF ; method: hybridisation ; value: >10 µM
CC(C)(C)NC(=O)[C@@H]1C[C@@H]2CCCC[C@@H]2CN1C[C@@H](O)[C@H](Cc1ccccc1)NC(=O)[C@H](CC(N)=O)NC(=O)c1ccc2ccccc2n1 ; strain: MN ; method: RT activity ; value: 0.013 µM

3 of the rows above, restated:

SMILES,strain,mutations,method,value
CC(C)(C)NC(=O)[C@@H]1C[C@@H]2CCCC[C@@H]2N1C(=O)[C@@H](O)[C@H](Cc1ccccc1)NC(=O)[C@H](CC(N)=O)NC(=O)c1ccc2ccccc2n1,RF,-,p24,0.023–0.11 µM
O=C1N(Cc2ccc(CO)cc2)[C@H](Cc2ccncc2)[C@H](O)[C@@H](O)[C@@H](Cc2ccncc2)N1Cc1ccc(CO)cc1,RF,-,hybridisation,10 µM
CC[C@H](C)[C@H](NC(=O)Cc1ccccn1)C(=O)N[C@@H](Cc1ccccc1)[C@@H](O)[C@H](O)[C@H](Cc1ccccc1)NC(=O)[C@@H](NC(=O)Cc1ccccn1)[C@@H](C)CC,RF,-,-,1.5 µg/mL

ECn: concentration that inhibits the pathogen or its effect by n%. Conditions beyond the fields shown may differ between rows. Blank or dashed fields: not listed here.